# Test: peptide synthesis
# Details: conjugation step
substance,measurement,value
D-Tyr-Ser-Thr-Gln-Ile-Ser-Arg-Gly-Phe-Thr-Arg-Asp-Ser-Arg-Gly-Cys-Gly-Ser-Gly-Ser-Gly-Ser-Lys-DOTA cyclized between the cysteine and the chloroacetic acid,purity (crude or final not stated),exceeding 99%
